Source: PubChem BioAssay AID1159583 (ICCB-Longwood Screening Facility, Harvard Medical School, 2016)
The entries are a selection whose mix differs from that of the whole data set. Calls of active or inactive are those of the source. Cut-off read from the data, not from the text of the source: active = fluorescence inhibition mostly above about 23% (no sharp cut-off); inactive = mostly below about 17%.

Assay: hypoxia reporter signal reduction in M. tuberculosis – fluorescence, absorbance growth readout, primary screen (AID 1159583)
Settings: M. tuberculosis hypoxia-regulated fluorescent reporter, active compounds read high, concentration not given here

Row | Compound | fluorescence inhibition
1 | CCOC(=O)Nc1ccc([As](=O)(O)O)c(O)c1 | active: 34.6%
